A mixed list of measured activities; the numbers were collected in NIAID ChemDB.

All rows: tests in culture; agent: Influenza A virus

ECn is the concentration giving n% inhibition of infection, replication or growth.

structure | strain | endpoint | method | cell line | result
NC12CC3CC(CC(C3)C1)C2 | - | EC90 | plaque count | MDCK | 1 µg/mL
NC(=O)c1nc(F)c[nH]c1=O | H3N2 AICHI/2/68 | EC50 | plaque count | MDCK | 0.078 µg/mL
NC(=O)c1ncn([C@@H]2O[C@H](CO)[C@@H](O)[C@H]2O)c1O | - | EC50 | plaque count | MDCK | 12 µg/mL
C[C@@H]1CCC[C@@H]2C[C@@H](NC(=O)c3ccc(N)c(Cl)c3)CCN21 | H1N1 A/WSN/33 | EC50 | plaque count | MDBK | >20 µg/mL
C[C@@H](O)C1=C[C@@H](n2cnc3c(N)ncnc32)[C@H](O)[C@@H]1O | Influenza A/Ishikawa/7/82 (H3N2) | EC50 | plaque count | MDCK | >100 µg/mL
CC(=O)N[C@H]1[C@H]([C@H](O)[C@H](O)CO)OC(C(=O)O)=C[C@@H]1N=C(N)N | H3N2 A/AICHI/2/68 | EC50 | - | MDCK | 0.014 µM
C[C@@H]1CCC[C@@H]2C[C@@H](NC(=O)c3cc(-c4ccccc4)ccc3O)CCN21 | H1N1 A/WSN/33 | EC50 | plaque count | MDBK | >20 µg/mL
CN1CCC2(C1)C1CC3CC(C1)CC2C3 | A/Maryland/104/68 | MIC | - | - | 0.1 µg/mL
O[C@H]1[C@H](O)[C@@H](O)CN2CC[C@H](O)[C@H]12 | A/HONG KONG/11/88 | EC50 | plaque count | MDCK | 15 µM
NC(=O)c1ncn([C@@H]2O[C@H](CO)[C@@H](O)[C@H]2O)n1 | A/Maryland/104/68 | MIC | - | - | 0.1 µg/mL
C[C@@H]1CCC[C@@H]2C[C@@H](NC(=O)c3cc4c(cc3O)C(C)(C)CCC4(C)C)CCN21 | H1N1 A/WSN/33 | EC50 | plaque count | MDBK | >20 µg/mL
CC(N)C12CC3CC(CC(C3)C1)C2 | H1N1 A/TEXAS/36/91 | EC50 | neutral red | MDCK | 0.15 µM
C[C@@H]1CCC[C@@H]2C[C@@H](NC(=O)c3cc(Br)ccc3O)CCN21 | H1N1 A/WSN/33 | EC50 | plaque count | MDBK | 0.8 µg/mL
N=C(N)c1ncn([C@@H]2O[C@H](CO)[C@@H](O)[C@H]2O)n1 | Influenza A/Panama/2007/99 (H3N2) | EC50 | neutral red | MDCK | 18 µg/mL
C[C@@H]1CCC[C@@H]2C[C@@H](NC(=O)c3cccc(O)c3O)CCN21 | H1N1 A/WSN/33 | EC50 | plaque count | MDBK | >20 µg/mL
CC(N)C12CC3CC(CC(C3)C1)C2 | - | EC90 | plaque count | MDCK | 0.06 µg/mL

Repeating the final 2 entries:

structure,strain,endpoint,method,cell line,result
C[C@@H]1CCC[C@@H]2C[C@@H](NC(=O)c3cccc(O)c3O)CCN21,H1N1 A/WSN/33,EC50,plaque count,MDBK,>20 µg/mL
CC(N)C12CC3CC(CC(C3)C1)C2,-,EC90,plaque count,MDCK,0.06 µg/mL

Neighbouring rows are from separate reports. Blank or dashed fields: not listed here.